Measured values from several laboratories, pooled; numbers as filed in NIAID ChemDB.

ECn: concentration that inhibits the pathogen or its effect by n%. An empty or dashed field is not shown. Neighbouring rows are from separate reports. MIC bound: limit read from a one-dose screen. ICn: concentration for n% inhibition. Percent inhibition refers to the dose given; in toxicity tests it is the harm to the cells.

structure | cell line | tested at | measure | test | strain | target | agent | method | value
N#Cc1cccc(-c2cncc(N3CCN(c4ccncc4)CC3)n2)c1 |  | 1 µM | inhibition | target |  | UL97 kinase | Cytomegalovirus |  | <50%
CN(C)CCNc1cccc2c1C(=O)c1cccc(NCCN(C)C)c1C2=O |  | 12.5 µg/mL | inhibition | culture | H37Rv |  | Mycobacterium tuberculosis | BACTEC | 24%
CC(=O)c1ccc(-c2cncc(N3CCN(c4cccc(C)c4C)CC3)n2)s1 |  | 10 µM | inhibition | target |  | UL97 kinase | Cytomegalovirus |  | >15%
CC1=NN(C(=O)c2ccncc2)C(=O)C1N=Nc1ccc(S(=O)(=O)Nc2ccccn2)cc1 |  |  | MIC | culture | H37Rv |  | Mycobacterium tuberculosis | BACTEC | ≥12.8 µg/mL
O=C(CC(Nc1ccccc1)c1ccccc1)c1ccccc1 |  |  | MIC | culture | H37Rv |  | Mycobacterium tuberculosis |  | 50 µg/mL
CNc1ccccc1C(=O)NN=C1c2ccccc2-c2ccccc21 |  |  | MIC bound | culture | H37Rv |  | Mycobacterium tuberculosis | BACTEC | >12.5 µg/mL
O=C(Nc1nnc(NCC2CC2)s1)c1ccc(I)cc1 |  |  | IC50 | target |  | Polymerase | Human cytomegalovirus |  | >25 µM
Cc1ccc(O)c(O)c1 |  |  | MIC | culture | H37Rv |  | Mycobacterium tuberculosis |  | 50 µg/mL
O=C1NC(=O)N(C(F)(F)F)C(F)(F)N1C(F)(F)F |  | 12.5 µg/mL | inhibition | culture | H37Rv |  | Mycobacterium tuberculosis | BACTEC | 60%
CC[Si](CC)(OCCc1ccncc1)OCCc1ccncc1 |  |  | MIC | culture | H37Rv |  | Mycobacterium tuberculosis |  | >100 µg/mL
CCCCCCCCCCCNc1nnc(NC(=O)c2ccc(C(F)(F)F)cc2)s1 |  |  | IC50 | target |  | Polymerase | Human cytomegalovirus |  | >25 µM
CCCCOC(=O)CC(=O)OCCCC |  |  | MIC | culture | H37Rv |  | Mycobacterium tuberculosis |  | 100 µg/mL
COc1ccc(Cc2cc(N=NC(N)=O)c(C)cc2O)cc1 |  |  | MIC bound | culture | H37Rv |  | Mycobacterium tuberculosis | BACTEC | >12.5 µg/mL
C#CC[C@@H](C(=O)N[C@H](/C=C/C(=O)OCC)C[C@@H]1CCNC1=O)n1cccc(NC(=O)c2cc(C)on2)c1=O | H1-HELA |  | EC50 | culture | Serotype 11 |  | Rhinovirus | cytopathic effect / XTT | 0.033 µM
CCOc1ccc(-c2cncc(N3CCN(c4ccc(C)cc4)CC3)n2)cc1 |  | 10 µM | inhibition | target |  | UL97 kinase | Cytomegalovirus |  | >15%
Cl.OC1c2c(ccc3ccccc23)CCC1CN1CCCCC1 |  |  | MIC | culture | H37Rv |  | Mycobacterium tuberculosis |  | >100 µg/mL
CCO/N=C/c1ccc(OCCC2CCN(c3ccc(C)nn3)CC2)cc1 | KB |  | EC50 | culture | 1857-CV51 (ICAM-1 receptor group 67) |  | Rhinovirus | neutral red | 0.016 µM
Nc1ccc(C(=O)c2ccccc2C(=O)O)cc1N |  |  | MIC | culture | H37Rv |  | Mycobacterium tuberculosis |  | >100 µg/mL
CCCCn1c(=O)c2c(ncn2C)n(C)c1=O |  |  | MIC bound | culture | H37Rv |  | Mycobacterium tuberculosis | BACTEC | >12.5 µg/mL
Cl.Nc1ccc(O)c(C(=O)O)c1 |  |  | MIC | culture | H37Rv |  | Mycobacterium tuberculosis |  | >100 µg/mL
O=C1O/C(=C(/C(=O)O)c2ccc(O)cc2)C(O)=C1c1cc2c3c(c(O)cc(C4=C(O)/C(=C(\C(=O)O)c5ccc(O)cc5)OC4=O)c3c1)OC2=O |  |  | MIC | culture | H37Rv |  | Mycobacterium tuberculosis | BACTEC | ≥12.5 µg/mL
O=C(Nc1nnc(NCCCCc2ccccc2)s1)c1ccc(I)cc1 |  |  | IC50 | target |  | Polymerase | Human cytomegalovirus |  | <25 µM
Cn1c(=O)c2nc(-c3ccc(Cl)c(Cl)c3)c(-c3ccc(Cl)c(Cl)c3)nc2n(C)c1=O |  |  | MIC bound | culture | H37Rv |  | Mycobacterium tuberculosis | BACTEC | >12.5 µg/mL
Cc1ccc(C(=O)c2ccc(C)cc2)cc1 |  |  | MIC | culture | H37Rv |  | Mycobacterium tuberculosis |  | >100 µg/mL
CC(C)c1cc(C(C)C)c(C(=O)Nc2nnc(NCc3cccs3)s2)c(C(C)C)c1 |  |  | IC50 | target |  | Polymerase | Human cytomegalovirus |  | >25 µM
CC(=O)c1cccc(-c2cncc(N3CCN(c4ccccc4F)CC3)n2)c1 |  |  | IC50 | target |  | UL97 kinase | Cytomegalovirus |  | <10 µM
O=C(c1ccc(Cl)cc1)c1ccc(Cl)cc1 |  |  | MIC | culture | H37Rv |  | Mycobacterium tuberculosis |  | >100 µg/mL
Fc1ccc(N2CCCCC2)c(NC(=S)c2ccncc2)c1 |  | 10 µM | inhibition | host protein |  | ROCK-I/II |  | kinase activity | 16%
CCOc1ccc2ccccc2c1C(=O)Nc1nnc(NCCc2c[nH]c3ccccc23)s1 |  |  | IC50 | target |  | Polymerase | Human cytomegalovirus |  | <25 µM
NC(Cc1ccc(O)cc1)C(=O)N/N=C/c1ccccc1Cl |  |  | MIC bound | culture | H37Rv |  | Mycobacterium tuberculosis | BACTEC | >12.5 µg/mL
CCC(N)c1cccs1.Cl |  |  | MIC | culture | H37Rv |  | Mycobacterium tuberculosis |  | 100 µg/mL
CC(C)(C)c1ccc(-c2cncc(N3CCN(c4cccc(C(F)(F)F)c4)CC3)n2)cc1 |  |  | IC50 | target |  | UL97 kinase | Cytomegalovirus |  | <100 µM
N#Cc1nc(CC(=O)c2ccc(Cl)cc2Cl)c(CC(=O)c2ccc(Cl)cc2Cl)nc1C#N |  |  | MIC | culture | H37Rv |  | Mycobacterium tuberculosis | BACTEC | ≥12.5 µg/mL
CC1CS(=O)(=O)CC(C)S1(=O)=O |  |  | MIC | culture | H37Rv |  | Mycobacterium tuberculosis |  | >100 µg/mL
COc1cc(C(=O)O)c2c(c1C)OC(=O)c1c(C)cc(O)c(C=O)c1O2 |  |  | MIC bound | culture | H37Rv |  | Mycobacterium tuberculosis | BACTEC | >12.5 µg/mL
OC1(C#CC2(O)CCCC2)CCCC1 |  |  | MIC | culture | H37Rv |  | Mycobacterium tuberculosis |  | >100 µg/mL
O=C(N=Nc1c(O)[nH]c2ccc(Br)cc12)c1ccco1 |  | 12.5 µg/mL | inhibition | culture | H37Rv |  | Mycobacterium tuberculosis | BACTEC | -26%
O=C(CCCCCl)Nc1nnc(NCCCCc2ccccc2)s1 |  |  | IC50 | target |  | Polymerase | Human cytomegalovirus |  | >25 µM
c1ccc(N2CCN(c3cncc(-c4cccs4)n3)CC2)nc1 |  |  | IC50 | target |  | UL97 kinase | Cytomegalovirus |  | <100 µM
COc1ccc(C2CC(c3c(C)nn(-c4ccccc4)c3-c3ccc(C)cc3O)=NN2c2ccccc2)cc1 |  |  | MIC bound | culture | H37Rv |  | Mycobacterium tuberculosis | resazurin | >6.25 µg/mL
CCOC(=O)/C(C#N)=C/C=C(\C)CCC=C(C)C |  |  | MIC | culture | H37Rv |  | Mycobacterium tuberculosis |  | >100 µg/mL
O=c1c2ccccc2nc2ccc(Cl)nn12 |  | 6.25 µg/mL | inhibition | culture | H37Rv |  | Mycobacterium tuberculosis | resazurin | 29%
C[N+](C)(CCCCOc1ccccc1)CCCCOc1ccccc1.[Br-] |  |  | MIC | culture | H37Rv |  | Mycobacterium tuberculosis |  | 50 µg/mL
CCCCCCCCCC(=O)N1c2ccccc2Sc2ccccc21 |  | 12.5 µg/mL | inhibition | culture | H37Rv |  | Mycobacterium tuberculosis | BACTEC | -13%
CC(NC(C)c1ccccc1)c1ccccc1 |  |  | MIC | culture | H37Rv |  | Mycobacterium tuberculosis |  | >100 µg/mL

For reference, 3 entries again:

NC(Cc1ccc(O)cc1)C(=O)N/N=C/c1ccccc1Cl ; measure: MIC bound ; test: culture ; strain: H37Rv ; agent: Mycobacterium tuberculosis ; method: BACTEC ; value: >12.5 µg/mL
COc1ccc(Cc2cc(N=NC(N)=O)c(C)cc2O)cc1 ; measure: MIC bound ; test: culture ; strain: H37Rv ; agent: Mycobacterium tuberculosis ; method: BACTEC ; value: >12.5 µg/mL
Cl.Nc1ccc(O)c(C(=O)O)c1 ; measure: MIC ; test: culture ; strain: H37Rv ; agent: Mycobacterium tuberculosis ; value: >100 µg/mL